Compound potency records, mixed from different reports. Data source: NIAID ChemDB in PubChem.

All rows: whole-cell or culture tests; agent: Candida albicans; endpoint: zone

An empty or dashed field is not shown. Zones are inhibition diameters on agar. Neighbouring rows are from separate reports.

SMILES,strain or isolate,read by,tested at,value
Fc1cccc(-c2nnc(CN3CCC(n4nc5ccccc5n4)CC3)o2)c1F,,,1200 µg/mL,17.25 mm
O=C(NN=C1CCCCC1)c1snnc1C(F)(F)F,MTCC 227,agar diffusion / agar,100 µg/mL,0 mm
N#Cc1c(-c2ccccc2)csc1NC(=O)C1C=CC(c2cccs2)=NC1=O,,agar diffusion / agar,1000 µg/mL,0 mm
O=C(NN=Cc1ccc(O)cc1)c1snnc1C(F)(F)F,MTCC 227,agar diffusion / agar,150 µg/mL,0 mm
C#C/C(=C\N(C)C)C(=O)Nc1scc(-c2ccc(Cl)cc2)c1C#N,,agar diffusion / agar,1000 µg/mL,0 mm
CC(=NNC(=O)c1snnc1C(F)(F)F)c1ccccn1,MTCC 227,agar diffusion / agar,100 µg/mL,0 mm
CC(C)(C)c1cc(-c2nnc(CN3CCC(n4nc5ccccc5n4)CC3)o2)cc(C(C)(C)C)c1,,,600 µg/mL,7.08 mm
COc1ccc(CN(CC(O)C[N+](C)(C)C)[C@@H]2[C@@H](O)[C@H](O[C@@H]3O[C@H](COCC(=O)O)[C@@H](O[C@@H]4C[C@H](COCC(=O)O)[C@@H](C)[C@H](O)[C@H]4N(Cc4ccc(OC)cc4)CC(O)C[N+](C)(C)C)[C@H](O)[C@H]3N(Cc3ccc(OC)cc3)CC(O)C[N+](C)(C)C)[C@@H](COCC(=O)O)O[C@H]2C)cc1,RCMB 05031,agar diffusion,1 mg/mL,13 mm
N#Cc1c(-c2ccccc2)csc1NC(=O)C1C=CC(c2ccccc2)=NC1=O,,agar diffusion / agar,1000 µg/mL,0 mm
O=[N+]([O-])c1ccc(-c2nnc(CN3CCC(n4nc5ccccc5n4)CC3)o2)cc1Cl,,,600 µg/mL,6.25 mm
C#Cc1c(-c2ccc([N+](=O)[O-])cc2)c(C#N)c2nc(=O)c3c(-c4ccccc4)csc3n2c1N,,agar diffusion / agar,1000 µg/mL,0 mm
C[C@@H]1[C@@H](COCC(=O)O)C[C@@H](O[C@H]2[C@H](O)[C@@H](N(Cc3ccc(Cl)cc3)CC(O)C[N+](C)(C)C)[C@H](O[C@H]3[C@H](O)[C@@H](N(Cc4ccc(Cl)cc4)CC(O)C[N+](C)(C)C)[C@H](C)O[C@@H]3COCC(=O)O)O[C@@H]2COCC(=O)O)[C@H](N(Cc2ccc(Cl)cc2)CC(O)C[N+](C)(C)C)[C@H]1O,RCMB 05031,agar diffusion,1 mg/mL,16.1 mm
c1ccc(-c2nnc(CN3CCC(n4nc5ccccc5n4)CC3)o2)cc1,,,900 µg/mL,13.25 mm
CC(=NNC(=O)c1snnc1C(F)(F)F)c1ccc(Br)cc1Br,MTCC 227,agar diffusion / agar,150 µg/mL,15 mm
C[C@@H]1[C@@H](COCC(=O)O)C[C@@H](O[C@H]2[C@H](O)[C@@H](N(Cc3ccc([N+](=O)[O-])cc3)CC(O)C[N+](C)(C)C)[C@H](O[C@H]3[C@H](O)[C@@H](N(Cc4ccc([N+](=O)[O-])cc4)CC(O)C[N+](C)(C)C)[C@H](C)O[C@@H]3COCC(=O)O)O[C@@H]2COCC(=O)O)[C@H](N(Cc2ccc([N+](=O)[O-])cc2)CC(O)C[N+](C)(C)C)[C@H]1O,RCMB 05031,agar diffusion,1 mg/mL,22.3 mm
O=C(NN=Cc1cccs1)c1snnc1C(F)(F)F,MTCC 227,agar diffusion / agar,100 µg/mL,0 mm
N#Cc1cc(C#N)c2[nH]c(=O)c3c(-c4ccccc4)csc3[n+]2c1N,,agar diffusion / agar,1000 µg/mL,2.6 mm
COc1ccc(C=NNC(=O)c2snnc2C(F)(F)F)cc1,MTCC 227,agar diffusion / agar,150 µg/mL,0 mm
C[C@@H]1[C@@H](COCC(=O)O)C[C@@H](O[C@H]2[C@H](O)[C@@H](N(Cc3cccc(Cl)c3)CC(O)C[N+](C)(C)C)[C@H](O[C@H]3[C@H](O)[C@@H](N(Cc4cccc(Cl)c4)CC(O)C[N+](C)(C)C)[C@H](C)O[C@@H]3COCC(=O)O)O[C@@H]2COCC(=O)O)[C@H](N(Cc2cccc(Cl)c2)CC(O)C[N+](C)(C)C)[C@H]1O,RCMB 05031,agar diffusion,1 mg/mL,19.5 mm
N#Cc1c(-c2ccccc2)csc1NC(=O)c1cc2ccccc2[nH]c1=O,,agar diffusion / agar,1000 µg/mL,16 mm

A second listing of 2 rows from above:

{"SMILES": "N#Cc1c(-c2ccccc2)csc1NC(=O)c1cc2ccccc2[nH]c1=O", "read by": "agar diffusion / agar", "tested at": "1000 µg/mL", "value": "16 mm"}
{"SMILES": "COc1ccc(C=NNC(=O)c2snnc2C(F)(F)F)cc1", "strain or isolate": "MTCC 227", "read by": "agar diffusion / agar", "tested at": "150 µg/mL", "value": "0 mm"}